Measurements taken from US5629198A (priority 1991, dated 1997).

What was measured:
MOLT-4/HTLV-IIIB = assay: Killing effect on cells persistently infected with HIV (Test Example 1), trypan blue; type: cell-based, human; conditions: 3 days
Protocol: (§1) The cell killing effects of test substances were determined using a cell strain persistently infected with HIV in MOLT-4 cells and MOLT-4 cells.
(§2) MOLT4/HTLV-IIIB, MOLT4/ARV and MOLT4 cell strains were separately inoculated in proportions of 4×10^4 cells/well (200 μl) on a 96-well plate, and the above test substances in various concentrations were separately added in an amount of 20 μl thereto. After each cell sample was cultured for 3 days at 37° C. in the presence of 5% CO2, the culture was diluted to a triple or quadruple amount, thereby counting the number of living cells by a trypan blue dye exclusion test. As a control, 20 μl of PBS were added in place of each test substance. Each numerical value is expressed in terms of the percentage of living cells to the control.

MOLT-4/ARV = assay: as above; type: cell-based, human; conditions: 3 days
Protocol: as §1, §2

[1] = system: human peripheral blood lymphocytes (PBL), uninfected system; assay: Cytotoxic effect on uninfected PBL (Test Example 6); type: cell-based; conditions: sixth day, 8640 min
Protocol: (§3) The anti-HIV effects of test substances on human peripheral blood lymphocytes infected with HIV were determined.
(§4) After blood is collected from a vein by a syringe whose interior wall is wetted with heparin, PBL is separated from the blood with Ficol. After this PBL cell is inoculated on a 25-cm^2 culture flask containing 10 ml of a RPMI 1640 medium (including IL-2) added with 20% of a fetal bovine serum so as to contain 7×10^5 cells/ml therein, 40 μl (1 mg/ml) of PHA are added to culture the cells for 4 days. After 4 days, the cells are washed. Thereafter, they are used in assaying the anti-HIV effects of the test substances as PBL cells in an HIV-uninfected system for part of them, and in an HIV-infected system for the remainder. The PBL cells are inoculated on a 25-cm^2 culture flask added with 5 ml of the above medium so as to contain 2×10^6 cells therein. Then, 500 μl of S-HSA-Hemin or S-HSA-EDC-Hemin are given in various concentrations thereto so as to conduct culture at 37° C. in the presence of 5% CO2, thereby assaying the cytotoxic effects of the test substances in the various concentrations. With respect to the infected system on the other hand, 8 ml of HTLV-IIIB (10^7 TCID50 /ml) obtained from a culture supernatant of an HIV-persistently infected strain, MOLT-4/HTLV-IIIB are inserted in the PBL cells to culture them for 2 hours. Thereafter, the cells are washed, and then inoculated on a 25-cm^2 culture flask added with 5 ml of the above medium so as to contain 2×10^6 cells therein. In the same manner as described above, S-HSA-Hemin or S-HSA-EDC-Hemin is given in the various concentrations thereto, thereby conducting culture at 37° C. in the presence of 5% CO2. After 3, 6 and 9 days from the beginning of the culture, the number of cells are counted to calculate the quantity of the P24 protein produced and TCID50.

[2] = system: HTLV-IIIB in human peripheral blood lymphocytes (PBL); assay: P24 production in HIV-infected PBL (Test Example 6); type: cell-based, HIV (HTLV-IIIB); conditions: sixth day, 8640 min
Protocol: as §3, §4

HTLV-IIIB in MT-4 cells = assay: Anti-HIV effect: TCID50 of infectious virus from infected MT-4 cells (Test Example 5); type: cell-based, HIV (HTLV-IIIB); conditions: 4 days, positive control 3.31 × 10^7
Protocol: The inhibitory effects of test substances on the cytopathy and HIV antigen production of MT-4 cells due to HIV infection were determined.
MT-4 cells belonging to a cell strain persistently infected with HTLV-1 are high in sensitivity to HIV and promptly die out when infected. MT-4/HIV cells which are MT-4 cells infected with HIV are used for screening anti-HIV agents making good use of this nature.
After MT-4 cells (1.2×10^7 cells) were infected for 2 hours at 37° C. with 3.2 ml of HTLV-IIIB (10^7 TCID50 /ml) obtained from a culture supernatant of a cell strain persistently infected with HIV, i.e., […], the cells were washed. After the cells were then inoculated on a 48-well microplate in a proportion of 1×10^5 cells/well, the test substances were separately added in an amount of 100 μl. As a negative control, there was used a culture obtained by adding 3.2 ml of a culture supernatant after culturing MOLT-4 cells for 3 days to MT-4 cells (4.7×10^6 cells), conducting culture for 2 hours at 37° C., washing the cells in the same manner as described above, inoculating them in a proportion of 1×10^5 cells/well and adding PBS in place of the test substances.
Upon elapsed time of 4 days after the culture, each supernatant was assayed on a P24gag protein based on an EIA kit produced by Abbott Labs, and the number of living cells was counted by the Trypan Blue dye exclusion method, and moreover, TCID50 indicative of an actual quantity of infectious virus was calculated.

MOLT-4 = assay: Killing effect on uninfected cells (Test Example 1), trypan blue; type: cell-based, human; conditions: 100 μg/ml, 3 days
Protocol: as §1, §2

## S--HSA--PP: complex of succinylated human serum albumin and PP (protoporphyrin)
MOLT-4/HTLV-IIIB; 14.2 μg/ml
  living cells (percentage to the control): 69%
MOLT-4/HTLV-IIIB; 28.5 μg/ml
  living cells (percentage to the control): 25%
MOLT-4/HTLV-IIIB; 56.9 μg/ml
  living cells (percentage to the control): 8%
MOLT-4/HTLV-IIIB; 1l3.8 μg/ml
  living cells (percentage to the control): 0%
MOLT-4/ARV; 14.2 μg/ml
  living cells (percentage to the control): 56%
MOLT-4/ARV; 28.5 μg/ml
  living cells (percentage to the control): 26%
MOLT-4/ARV; 56.9 μg/ml
  living cells (percentage to the control): 10%
MOLT-4/ARV; 1l3.8 μg/ml
  living cells (percentage to the control): 0%

## S--HSA-Hemin: complex of succinylated human serum albumin and hemin
[1]; 45.4 μg/ml
  Living cells in uninfected system: 113%
[1]; 90.8 μg/ml
  Living cells in uninfected system: 88%
[1]; 181.6 μg/ml
  Living cells in uninfected system: 66%
[2]; 45.4 μg/ml
  P24 production in infected system: 4.8%
[2]; 90.8 μg/ml
  P24 production in infected system: 3.1%
[2]; 181.6 μg/ml
  P24 production in infected system: 1.7%
HTLV-IIIB in MT-4 cells; 90.8 μg/ml
  TCID50 (quantity of infectious virus): 4.06 × 10^3 TCID50 /ml

## SHSA: succinylated human serum albumin [reference compound]
MOLT-4/HTLV-IIIB; 100 μg/ml
  living cells (percentage to the control): 100%
MOLT-4/ARV; 200 μg/ml
  living cells (percentage to the control): 100%
MOLT-4
  living cells (percentage to the control): 100%
HTLV-IIIB in MT-4 cells; 100 μg/ml
  TCID50 (quantity of infectious virus): 1.64 × 10^5 TCID50 /ml
